Pooled drug test results. Numbers come from NIAID ChemDB, via PubChem.

Common to all: whole-cell or culture tests; organism: HIV-1; cell line: H9; endpoint: inhibition

Lines come from different laboratories, so protocols vary. Inhibition is in % at the dose shown (toxicity tests: loss of growth or viability). Blank or dashed fields: not listed here.

structure | strain or isolate | method | setting | tested at | value
CN=C1CN=C(c2ccc[nH]2)c2cc(Cl)ccc2N1 | IIIB | antigen |  | 3 µM | 90%
CC[C@@]1(O)C(=O)OCc2c1cc1n(c2=O)Cc2cc3ccccc3nc2-1 | IIIB | RT activity |  | 0.02 µM | 93%
OCC(S)CS | IIIB-C-3 | RT activity |  | 5 µg/mL | 90%
COc1cc([C@@H]2c3cc4c(cc3[C@H](O)[C@H]3COC(=O)[C@H]23)OCO4)cc(OC)c1OC | IIIB | RT activity |  | 0.007 µM | 74%
CCCCCCCCOCCCCC(=O)O | IIIB | p24 / RT activity |  | 40 µM | 0%
Nc1nc(=O)n([C@H]2C[C@H](O)[C@@H](CO)O2)cc1-c1ccc(-c2ccccc2)s1 | IIIB | RT activity |  | 10 µg/mL | 32.5%
CC[C@H](C)[C@H](NC(=O)[C@H](C/C=C/c1ccccc1)C[C@H](O)[C@H](Cc1ccccc1)NC(=O)OC(C)(C)C)C(=O)NCc1nc2ccccc2[nH]1 | IIIB | antigen |  | 0.012 µM | 100%
COCCCCCCCCCCCC(=O)O |  | RT activity |  | 100 µM | 90%
CC(=O)OCOP(=O)(OCOC(C)=O)C(=O)Oc1ccc(Cl)cc1Cl | IIIB | cytopathic effect / MTT |  | 8 µM | >70%
Nc1nc(=O)n([C@@H]2C[C@H](O)[C@@H](CO)O2)cc1-c1ccco1 | IIIB | RT activity |  | 10 µg/mL | 27.5%
O=C(O)P(=O)(O)O | III | RT activity |  | 680 µM | 100%
O=CCNC(=O)[C@@H]1CCCN1 | IIIB | p24 |  | 250 µg/mL | 78.3%
O=C(NCc1ccc(F)cc1)c1nc(N2CCCCS2(=O)=O)c2cccnc2c1O | IIIB | p24 |  | 0.015 µM | 95%
CCCCCCCCCC(=O)O |  | RT activity |  | 100 µM | 20%
O=C1OC(C2OC(=O)c3cc(O)c(O)c(O)c3-c3c(O)c(O)c4oc(=O)c5c(c(O)c(O)c6oc(=O)c3c4c65)-c3c(cc(O)c(O)c3O)C(=O)OCC2O)C2OC(=O)c3c(c(O)c(O)c(O)c3C2O)-c2c1cc(O)c(O)c2O | IIIB | p24 |  | 20 µg/mL | 90%
COc1ccc(S(=O)(=O)N(CC(C)C)C[C@@H](O)[C@H](Cc2ccccc2)NC(=O)O[C@H]2CO[C@H]3OCC[C@H]32)cc1 | IIIB | p24 |  | 0.001 µM | 90%
Cc1c(CBr)n2c(C[N+](C)(C)C)c(C)c(=O)n2c1=O.[Br-] | IIIB | p24 |  | 300 µM | 44%
CCC[C@@]1(CCc2ccccc2)CC(O)=C([C@H](CC)c2cccc(NS(=O)(=O)c3ccc(C(F)(F)F)cn3)c2)C(=O)O1 | IIIB | p24 |  | 0.16 µM | 90%
CC(C)[C@H](NC(=O)c1ccc2ccccc2n1)C(=O)N[C@@H](Cc1ccccc1)[C@H](O)CN1CC[C@@H](OCc2ccncc2)C[C@H]1C(=O)NC(C)(C)C | IIIB | p24 |  | 0.009 µM | 90%
COc1ccc(C[C@H]2COC(=O)[C@@H]2Cc2ccc(O[C@@H]3O[C@H](CO)[C@@H](O)[C@H](O)[C@H]3O)c(OC)c2)cc1OC | IIIB | RT activity |  | 5 µM | 86%
COC(=O)[C@H]1[C@@H]2C[C@@H](O[C@@H]3O[C@H](C)[C@@H](O)[C@H](N)[C@@H]3O)/C=C/C=C/C=C/C=C/C=C/C=C/C=C/[C@H](C)[C@@H](O)[C@H](C)[C@H](C)OC(=O)C[C@H](O)C[C@H](O)[C@@H](O)CC[C@H](O)C[C@H](O)C[C@](O)(C[C@@H]1O)O2 | IIIB | antigen |  | 5 µg/mL | 90%
Nc1nc(N)c2ncn(CCOCP(=O)(O)O)c2n1 | IIIB | antigen |  | 0.2 µM | 67.5%
COc1cc(C[C@H]2C(=O)OC[C@@H]2Cc2ccc(OC)c(OC)c2)ccc1O | IIIB | syncytia |  | 0.13 µM | 81%
Cc1cn([C@H]2C[C@H](N=[N+]=[N-])[C@@H](CO)O2)c(=O)[nH]c1=O | IIIB | p24 |  | 0.08 µg/mL | 0%
Nc1ccn([C@@H]2O[C@H](CO)C[C@@H]2F)c(=O)n1 | IIIB | antigen |  | 10 µM | 89%
CCCC(=O)O[C@H]1CN2CC[C@H](O)[C@@H]2[C@@H](O)[C@@H]1O | U455 |  |  | 40 µM | 99%
O=C1N(Cc2ccc(CO)cc2)[C@H](Cc2ccccc2)[C@H](O)[C@@H](O)[C@@H](Cc2ccccc2)N1Cc1ccc(CO)cc1 | IIIB | virus yield |  | 0.14 µM | 90%
CCCC1(CCC)CC(O)=C(Cc2cccc(NS(=O)(=O)c3cn(C)cn3)c2)C(=O)O1 | IIIB |  |  | 3 µM | 5%
c1cc2c(cc1[C@H]1OC[C@H]3[C@@H]1CO[C@@H]3c1ccc3c(c1)OCO3)OCO2 | IIIB | syncytia |  | 8.2 µM | 84%
CCCCCCCCCCCCCCCCOCC(Cl)COP(=O)([O-])OCC[N+](C)(C)C | IIIB | RT activity |  | 3 µM | 89%
O=C(O)P(=O)(O)O | IIIB | p24 / antigen | 6 d | 30 µM | 12%
COC(=O)[C@@H]1C2CCC(C[C@@H]1OC(=O)c1ccccc1)N2C | IIIB | p24 |  | 50 µg/mL | <0%
Cc1ccc(C(=O)OC[C@H]2O[C@@H](n3cc(-c4cccn4C)c(N)nc3=O)C[C@@H]2OC(=O)c2ccc(C)cc2)cc1 | IIIB | RT activity |  | 10 µg/mL | 15%
NC(N)=NCCC[C@H](N)C(=O)NCC(=O)N1CCC[C@H]1C(=O)NCC=O | IIIB | syncytia |  | 250 µg/mL | 10%
Cc1ccsc1-c1cn([C@H]2C[C@H](O)[C@@H](CO)O2)c(=O)[nH]c1=O | IIIB | RT activity |  | 10 µg/mL | 15%
CCCOCCCCCCCCCC(=O)O |  | RT activity |  | 100 µM | 85%
CC(C)c1nc(CN(C)C(=O)N[C@H](C(=O)N[C@@H](Cc2ccccc2)C[C@H](O)[C@H](Cc2ccccc2)NC(=O)OCc2cncs2)C(C)C)cs1 | A01 Recombinant wild type | p24 |  | 5 µM | 93%
NCC(=O)N1CCC[C@H]1C(=O)NCC(=O)NCC=O | IIIB | syncytia |  | 25 µg/mL | 85%
CCC(C1=C(O)CC(CC)(c2cccc(NS(=O)(=O)c3ccc(C#N)cn3)c2)OC1=O)c1cccc(NS(=O)(=O)c2ccc(C#N)cn2)c1 | IIIB | p24 |  | 3 µM | 0%
CSc1c(C)c(SC)n2ccncc12 | IIIB | MTT / p24 |  | 60 µM | 85%
CCOC(=O)[C@H](CS)NC(=O)CC[C@H](N)C(=O)O | NL4-3 | p24 |  | 1600 µM | 100%
NC(N)=NCCC[C@@H](C=O)NC(=O)CNC(=O)[C@@H]1CCCN1 | IIIB | syncytia |  | 250 µg/mL | 0%
Cc1cn([C@H]2C[C@H](N=[N+]=[N-])[C@@H](CO)O2)c(=O)[nH]c1=O |  | RT activity |  | 50 µg/mL | 88%
C=C(C)C(=O)O.C=CC(=O)OCCCC | IIIB | syncytia |  | 7.5 µg/mL | 95%
CC(C)[C@H](NC(=O)N(C)Cc1ccccn1)C(=O)N[C@@H](Cc1ccccc1)[C@H](O)[C@H](O)[C@H](Cc1ccccc1)NC(=O)[C@@H](NC(=O)N(C)Cc1ccccn1)C(C)C | LAI | p24 |  | 0.5 µM | 90%
C[C@H]1[C@H](O)[C@@H](C)/C=C/C=C/C=C/C=C/C=C/C=C/C=C/[C@H](O[C@@H]2O[C@H](C)[C@@H](O)[C@H](N)[C@@H]2O)C[C@@H]2O[C@](O)(C[C@@H](O)C[C@@H](O)CC[C@H](O)[C@@H](O)C[C@@H](O)CC(=O)O[C@H]1C)C[C@H](O)[C@H]2C(=O)O |  | RT activity |  | 10 µg/mL | 86%
CCCCN1C[C@H](O)[C@@H](O)[C@H](O)[C@H]1CO |  | RT activity |  | 200 µM | 90%

Repeating the final 3 entries:

structure,strain or isolate,method,setting,tested at,value
CC(C)[C@H](NC(=O)N(C)Cc1ccccn1)C(=O)N[C@@H](Cc1ccccc1)[C@H](O)[C@H](O)[C@H](Cc1ccccc1)NC(=O)[C@@H](NC(=O)N(C)Cc1ccccn1)C(C)C,LAI,p24,,0.5 µM,90%
C[C@H]1[C@H](O)[C@@H](C)/C=C/C=C/C=C/C=C/C=C/C=C/C=C/[C@H](O[C@@H]2O[C@H](C)[C@@H](O)[C@H](N)[C@@H]2O)C[C@@H]2O[C@](O)(C[C@@H](O)C[C@@H](O)CC[C@H](O)[C@@H](O)C[C@@H](O)CC(=O)O[C@H]1C)C[C@H](O)[C@H]2C(=O)O,,RT activity,,10 µg/mL,86%
CCCCN1C[C@H](O)[C@@H](O)[C@H](O)[C@H]1CO,,RT activity,,200 µM,90%